Values quoted from earlier work in patent publication US20020195406A1, “Compositions and methods for disinfecting small diameter water lines” (priority 2001, published 2002).

System: dental unit water bacteria
Settings: weekly treatment with 5000 ppm chlorine (diluted bleach) plus 3 ppm chlorinated water in the unit; cited from earlier work

## chlorine
  bacterial level attained: < 200 cfu/ml
